Results of unrelated studies side by side (data: NIAID ChemDB).

Shared fields: whole-cell or culture tests; organism: HIV-1; cells: CEM; endpoint: EC50

An empty or dashed field is not shown. ECn: concentration that inhibits the pathogen or its effect by n%. Rows are shuffled and stem from different studies.

SMILES,strain or isolate,changes,read by,result
CCCCOC(=O)c1cc(NC(=O)C2=C(C)OCCS2)ccc1Cl,IIIB,-,syncytia,0.04 µg/mL
COc1ccc(NC(=O)c2ccoc2C)cc1OCC=C(Cl)Cl,HEPT-resistant (RT Y188H),RT-Y188H,syncytia,10 µg/mL
COc1ccc(S(=O)(=O)N(CC(C)C)C[C@@H](O)CCN(CC2CCCC2)S(=O)(=O)c2ccc(O)cc2)cc1,IIIB,-,p24,<1 µM
C=C(Cl)COc1cc(NC(=S)c2ccsc2C)ccc1C#N,TIBO R82913-resistant (RT K103N),RT-K103N,syncytia,0.4 µg/mL
CCOCn1c(Cc2ccccc2)c(CC)c(=O)[nH]c1=O,IIIB,RT-Y181I,syncytia,6.9 µM
CCCC1=C(C(=O)Nc2ccc(Cl)c(C(=O)OCC)c2)SCCO1,IIIB,-,syncytia,0.15 µg/mL
C/C(Cl)=C/COc1cc(NC(=O)c2ccoc2C)ccc1Cl,Pyridone-resistant (RT Y181C),RT-Y181C,syncytia,0.65 µg/mL
CC(C)c1c(Sc2ccccc2)n(COCCO)c(=O)[nH]c1=O,IIIB,RT-Y181C,syncytia,5.5 µM
Cc1ccc(C(C)S(=O)(=O)c2c(C)ccc[n+]2[O-])c(C)c1,IIIB,RT-Y181C,syncytia,50 µg/mL
CC1=C(C(=O)OCC2CCCCC2)C(c2ccccc2)NC(=O)N1,-,-,p24 / ELISA,≤1 µM
Cc1ccc(C)c(C(C)S(=O)(=O)c2c(C)ccc[n+]2[O-])c1,IIIB,RT-Y188H,syncytia,8.8 µg/mL
CCC1=C(C(=O)OCC2CCCCC2)C(c2ccc(OC(O)[C@H](C)[NH3+])c(Cl)c2)NC(=O)N1,-,-,p24 / ELISA,≤1 µM
COc1ccc(NC(=O)C2=C(C)OCCS2)cc1OCC=C(Cl)Cl,Pyridone-resistant (RT Y181C),RT-Y181C,syncytia,10 µg/mL
CCC1=C(C(=O)OCC2CCCCC2)C(c2cc([N+](=O)[O-])ccc2F)NC(=O)N1,-,-,p24 / ELISA,>5 µM
CCCC1=C(C(=O)Nc2ccc(Cl)c(C(=O)OC)c2)SCCO1,TIBO-resistant (RT L100I),RT-L100I,syncytia,6.5 µg/mL
Cc1ccc(C(C)S(=O)(=O)c2c(C)ccc[n+]2[O-])c(C)c1,IIIB,-,cytopathic effect,3.4 µg/mL
COc1ccc(C)cc1CS(=O)(=O)c1cccc[n+]1[O-],IIIB,RT-E103K,syncytia,48 µg/mL
COc1ccc(NC(=S)c2ccoc2C)cc1OCC=C(Cl)Cl,IIIB,-,syncytia,0.012 µg/mL
Cc1ccc(C)c(CSc2c(Cl)ccc[n+]2[O-])c1,IIIB,RT-L100I,syncytia,0.2 µg/mL
COC(=O)c1cc(NC(=O)C2=C(C)OCCS2)ccc1Cl,IIIB,-,syncytia,4 µg/mL
CCC1=C(C(=O)c2ccc(CC)cc2)C(c2cccc(O)c2)NC(=O)N1,-,-,p24 / ELISA,>5 µM
Cc1ccc(C)c(C(Cl)S(=O)(=O)c2cc(C)cc[n+]2[O-])c1,IIIB,-,syncytia,0.48 µg/mL
CC(C)c1c(Sc2ccccc2)n(COCc2ccccc2)c(=S)[nH]c1=O,IIIB,RT-Y181I,syncytia,5 µM
Cc1occc1C(=S)Nc1ccc(Cl)c(/C=N/OC(C)(C)C)c1,IIIB,RT-L100I,syncytia,0.242 µM
CCc1c(Sc2ccccc2)n(COCc2ccccc2)c(=S)[nH]c1=O,IIIB TIBO R82913-resistant (RT K103N),RT-K103N,syncytia,0.65 µM
COc1ccc(S(=O)(=O)N(CC(C)C)C(=O)C(=O)C(=O)[C@@H](Cc2ccccc2)NC(=O)O[C@H]2CCOC2)cc1,IIIB,-,p24,<1 µM
Cc1ccc(C)c(CSc2c(Cl)ccc[n+]2[O-])c1,-,RT-K103N,cytopathic effect,4.8 µg/mL
CCOCn1c(Sc2cc(C)cc(C)c2)c(CC)c(=O)[nH]c1=O,IIIB,RT-E138K,syncytia,0.03 µM
COc1ccc(NC(=S)C2=C(C)OCCS2)cc1OCC=C(Cl)Cl,Nevirapine-resistant isolate (RT V106A),RT-V106A,syncytia,2 µg/mL
CCCCCOC(=O)c1cc(NC(=O)C2=C(C)OCCS2)ccc1Cl,PYR-resistant (RT Y181C),RT-Y181C,syncytia,0.6 µg/mL
O=[N+]([O-])c1ccc[n+]([O-])c1SCc1ccccc1,HE,-,syncytia,10 µg/mL
O=C(c1ccccc1)N(CCc1ccccc1)C[C@H](O)CN(CC1CCCC1)S(=O)(=O)CC1CCS(=O)(=O)CC1,IIIB,-,p24,<1 µM
Cc1ccc(C)c(C(Cl)S(=O)(=O)c2cc(C)cc[n+]2[O-])c1,-,RT-Y181C,cytopathic effect,>4 µg/mL
O=S(=O)(Cc1ccccc1I)c1cccc[n+]1[O-],IIIB,-,syncytia,8 µg/mL
CC1=C(C(=O)Nc2ccc(Cl)c(C(=O)OC(C)C)c2)SCCO1,IIIB,RT-V179D,syncytia,0.94 µM
CCC1=C(C(=O)CC2CCC(OC)CC2)C(c2ccc(O)c(Cl)c2)NC(=O)N1,-,-,p24 / ELISA,>5 µM
COc1ccc(S(=O)(=O)N(CC(C)C)CC(O)CN2CSC[C@H]2C(=O)NC(C)(C)C)cc1,IIIB,-,p24,<1 µM
CCCOC(=O)c1cc(NC(=O)C2=C(C)OCCS2)ccc1Cl,IIIB,-,syncytia,0.02 µg/mL
Cc1occc1C(=S)Nc1ccc(Cl)c(SCC=C(Cl)Cl)c1,Pyridone-resistant (RT Y181C),RT-Y181C,syncytia,0.13 µg/mL
Cc1cc(C)c(CS(=O)c2cccc[n+]2[O-])c(C)c1,HE,-,syncytia,5.8 µg/mL
CCCOC(=O)c1ccc(C2NC(=O)NC(CC)=C2C(=O)OCC2CCCCC2)cc1,-,-,p24 / ELISA,≤1 µM
CCc1c(Sc2cc(C)cc(C)c2)n(COCc2ccccc2)c(=O)[nH]c1=O,IIIB,-,syncytia,0.001 µM
C=C(Cl)COc1cc(NC(=S)c2ccoc2C)ccc1C,Pyridone-resistant (RT Y181C),RT-Y181C,syncytia,1.47 µg/mL
COc1ccc(C)cc1CS(=O)(=O)c1cccc[n+]1[O-],IIIB,RT-Y181C,syncytia,50 µg/mL
CCC1=C(C(=O)OCC2CCCCC2)C(c2cccc(Br)c2)NC(=O)N1,-,-,p24 / ELISA,≤1 µM
CC1=C(C(=O)Nc2cc(C(=O)OC(C)C)c(F)cc2F)SCCO1,Nevirapine-resistant (RT V106A),RT-V106A,syncytia,>10 µg/mL
CC(C)CN(CC(O)CCN1C[C@H]2CCCC[C@H]2C[C@H]1C(=O)NC(C)(C)C)S(=O)(=O)c1ccccc1,IIIB,-,p24,<1 µM
Cc1ccc(C)c(C(C)S(=O)(=O)c2ccc(C)c[n+]2[O-])c1,MN,-,syncytia,60 µg/mL
CCOCn1c(Sc2ccccc2)c(CC)c(=O)[nH]c1=S,IIIB,RT-Y188H,syncytia,>30 µM
Cc1cc(C)c(CS(=O)c2cccc[n+]2[O-])c(C)c1,-,RT-Y181C,cytopathic effect,10 µg/mL
COc1ccc(S(=O)(=O)N(CC2CCCC2)C(=O)C(=O)C(=O)N(CC2CCCC2)S(=O)(=O)c2ccccc2)cc1,IIIB,-,p24,<1 µM

Again, the opening 3 rows:

CCCCOC(=O)c1cc(NC(=O)C2=C(C)OCCS2)ccc1Cl ; strain or isolate: IIIB ; read by: syncytia ; result: 0.04 µg/mL
COc1ccc(NC(=O)c2ccoc2C)cc1OCC=C(Cl)Cl ; strain or isolate: HEPT-resistant (RT Y188H) ; changes: RT-Y188H ; read by: syncytia ; result: 10 µg/mL
COc1ccc(S(=O)(=O)N(CC(C)C)C[C@@H](O)CCN(CC2CCCC2)S(=O)(=O)c2ccc(O)cc2)cc1 ; strain or isolate: IIIB ; read by: p24 ; result: <1 µM